Compound potency records, mixed from different reports. Data source: NIAID ChemDB in PubChem.

Shared fields: growth or infection tests; organism: Varicella zoster virus; endpoint: EC50

ECn is the concentration giving n% inhibition of infection, replication or growth.

structure,cells,method,strain or isolate,value
O=C(O)P(=O)(O)O,HEL,cytopathic effect,Clinical isolate VZV-16,97.9 µM
Nc1nc2c(ncn2C[C@H](CO)CCO)c(=O)[nH]1,HEL,cytopathic effect / ELISA,9/84,13.2 µM
Nc1ncnc2c1ncn2C[C@@H](CO)OCP(=O)(O)O,HEL,cytopathic effect,Oka CF1743-resistant,0.018 µM
O=c1[nH]c(=O)n([C@H]2C[C@H](O)[C@@H](CO)O2)cc1I,HEL,cytopathic effect / ELISA,9/84-A,>100 µM
O=c1[nH]c(=O)n([C@@H]2O[C@H](CO)[C@@H](O)[C@@H]2O)cc1/C=C/Br,HEL,cytopathic effect,Oka PMEA-resistant,0.0003 µM
O=c1[nH]c(=O)n([C@H]2C[C@H](O)[C@@H](CO)O2)cc1/C=C/Br,HEL,cytopathic effect / ELISA,9/84-C,>100 µM
O=C(NCc1ccc(Cl)cc1)c1c[nH]c2c(F)cccc2c1=O,,plaque count,MAG,1.1 µM
O=c1ccn([C@@H]2O[C@H](/C=C/C=C(Br)Br)[C@@H](O)[C@H]2O)c(=O)[nH]1,HEL,,OKA,>120 µM
Nc1nc2c(ncn2CC(CO)CCO)c(=O)[nH]1,HEL,cytopathic effect / ELISA,9/84 + PER + ULF + BIR + Y,1.7 µM
CC(NC(=S)Nc1ccc(NC(=O)c2ccccc2F)cc1)c1ccc(F)cc1,HFF,ELISA,JAB1233,0.44 µg/mL
O=C(O)CP(=O)(O)O,HEL,cytopathic effect,Oka CF1743-resistant,28.8 µM
Cn1cc(C(=O)NCc2ccc(Cl)cc2)c(=O)c2cc(CN3CCOCC3)ccc21,HFF,plaque count,KL varicella isolate,0.1 µM
Nc1nc2c(ncn2CCC(CO)CO)c(=O)[nH]1,HEL,cytopathic effect,Oka CF1603-resistant,≥70.3 µM
CCCCCCCCc1cc2cn([C@H]3C[C@H](O)[C@@H](CO)O3)c(=O)nc2o1,,,07 (TK-),>50 µM
Nc1nc2c(ncn2COC(CO)CO)c(=O)[nH]1,HEL,cytopathic effect / ELISA,9/84 + PER + ULF + BIR + Y,40.9 µM

The last 2 rows once more:

structure | cells | method | strain or isolate | value
CCCCCCCCc1cc2cn([C@H]3C[C@H](O)[C@@H](CO)O3)c(=O)nc2o1 |  |  | 07 (TK-) | >50 µM
Nc1nc2c(ncn2COC(CO)CO)c(=O)[nH]1 | HEL | cytopathic effect / ELISA | 9/84 + PER + ULF + BIR + Y | 40.9 µM

An empty or dashed field is not shown. Rows are shuffled and stem from different studies.